1 molecule from publication PMC7180491, “Synthesis and Biological Evaluation of Novel (thio)semicarbazone-Based Benzimidazoles as Antiviral Agents against Human Respiratory Viruses” (Molecules, 2020) can be followed below.

Structures are written as SMILES. Read-outs that look alike come from different tables or passages of the source. This is a selection: effects in other tests are not listed, and their absence says nothing.

Experiment [1] has as its system Respiratory syncytial virus (RSV; strain Long). As to the kind of experiment: Antiviral assay against RSV, microscopic inspection of the viral CPE. The format is cell-based. The settings on record: read-out: Anti-RSV EC50, microscopic method.
The next experiment deals with human coronavirus 229E. As to the kind of experiment: Antiviral assay against human coronavirus 229E in HEL cells, MTS readout. The format is cell-based. To be noted: read-out: Antiviral EC50 Coronavirus 229E.
For experiment [2], the system named is Influenza A/H3N2 (A/HK/7/87). As to the kind of experiment: Antiviral assay against influenza A/H3N2 in MDCK cells, MTS readout. Type of experiment: cell-based, human influenza virus. To be noted: read-out: Antiviral EC50 Influenza A/H3N2.
Experiment [3] relates to Influenza A/H1N1 (A/Ned/378/05). As to the kind of experiment: Antiviral assay against influenza A/H1N1 in MDCK cells, MTS readout. The format is cell-based, human influenza virus. To be noted: read-out: Antiviral EC50 Influenza A/H1N1.
The subject of experiment [4] is Respiratory syncytial virus (RSV; strain Long). The settings on record: read-out: Antiviral EC50 RSV; MTS assay, Hep-2 cells.

In the case of `CCN(CC)CCn1c(Cn2nc3ccccc3n2)nc2cc(C(C)=NN)ccc21`, the EC50 is 2400 nM in experiment [1]; greater than 100000 nM in the experiment on human coronavirus 229E; greater than 100000 nM in experiment [2]; greater than 100000 nM in experiment [3]; 2400 nM in experiment [4].
